# Results of single-concentration screens

The values are deposited in ChEMBL (CHEMBL3988442, “University of Dundee, Small-Polar-MMV Screening Library” (2021)).

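Whole-cell growth test on Mycobacterium tuberculosis, read after 3 days in glucose-containing 7H9 medium; the read-out is not stated. Concentration: 500 µM. The record gives no direction; compounds that gave an IC50 in retests scored well above the rest, so higher reads as more growth inhibition. Size under these conditions: about 18,000 compounds, about 1,400 of them at 50% or above in at least one test.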

Results are given as percent effect. The record does not define 0% and 100%; most values in the screen are far below 50% and negative numbers occur (in some assays of this library far below -100). Many other results are left out here, so strong results are more common than in the screen.

Result for NCCCC(=O)Nc1cc(C(F)(F)F)c[nH]c1=O was 13.29%. CN(C)CCOc1cnccc1CN gave 1.508%. With COc1ccc2c(c1)CCN2C(=O)C(C)(C)C#N the screen gave 68.31%. Cn1nccc1C(=O)N1CCC(Oc2ccccc2)C1 (stereo not drawn) gave 51.6%.

CCCN1CCN(C(=O)COc2ccccc2)CC1 read 50.36%. COc1ccc(NC(=O)N2CCCN(C)CC2)cc1F read 62.04%. For O=C(NCC1CCOCC1)NC1CCCC1 the result was 6.378%. Cc1n[nH]/c(=N\C(=O)c2csc(NC3CC3)n2)s1 gave 4.965%.

O=C(Cn1cnnn1)NCC1(c2ccccc2)CCC1 gave 50.13%. Result for NCCCc1nc(-c2ccc(F)cc2)no1 was 71.09%. Result for Cc1cc(CNc2cc(C(N)=O)ccc2C)no1 was 31.45%. For CC(=O)N1CC(NC(=O)NCC2CCCC2)C1 the result was -9.223%.

For CC(c1ccncc1)N(C)Cc1ccc(CO)o1 (stereo not drawn) the result was -9.01%. Result for CCN(CC)C(=O)Nc1cc2c(cc1C)OCO2 was 17.05%. COCCCNCc1ccc(OC)cc1 gave 11.15%. COc1cccc(Cl)c1CN1CCCNCC1 gave 60.44%.

For CC(C)C[C@H](N)C(=O)N(C)c1ccccc1 the result was 64.58%. CCN1CCN(CC(O)COc2ccccc2)CC1 (stereo not drawn) read 0.5184%. Result for COc1ccccc1OC(C)CN (stereo not drawn) was 87.48%. CN(C)C(=O)c1occc1Br gave 8.509%.

Result for COC1CCN(CC(=O)Nc2ccc(C(N)=O)cc2)C1 (stereo not drawn) was 6.711%. CC(C)c1ccc(C(=O)N2CCC(O)CC2)cc1 read 35.38%. With CC(C)C(N)c1nc(-c2ccncc2)no1 (stereo not drawn) the screen gave 34.63%. Result for CCOC(=O)CSc1n[nH]c(-c2cccnc2)n1 was 15.63%.

Result for Cn1cccc1C1COCCN1 (stereo not drawn) was -15.27%. With c1nsnc1-c1nc(C2CCCO2)no1 (stereo not drawn) the screen gave 50.93%. For Cc1cnc(CNCC2(O)CNCCOC2)cn1 (stereo not drawn) the result was -24.46%. For COc1ccc(CN2CCCC(CO)C2)cc1OC (stereo not drawn) the result was -0.3077%.

Result for CC(C)(C)OCCOc1ccc(OCCO)cc1 was 60.5%. For FCC1CNCCCO1 (stereo not drawn) the result was -2.581%. For Cc1nc(C(C)C)cc(N(C)CC(O)CO)n1 (stereo not drawn) the result was 4.304%. With CCOC(=O)NCCC(=O)NCc1ccccn1 the screen gave 19.14%.

With CC(C)(C)OC(=O)N1CCN(c2cc(N)ncn2)CC1 the screen gave 0.01482%. For Cc1nc(CN(C)CC(=O)Nc2ccn(C)n2)no1 the result was -1.793%. COc1cc(F)cc(NCC(=O)NCc2ccco2)c1 read 74.97%. With O=C(NCCOc1cccc2cccnc12)C1CC1 the screen gave 25.62%.

Result for CCc1ccccc1NC(=O)C1=NN(C)C(=O)CC1 was -11.31%. With Nc1ccsc1C(=O)N1CC[C@@H](N)[C@H](O)C1 the screen gave 19.2%. For O=C(NC1=NCCS1)c1sccc1C1CC1 the result was 64.17%. Result for Nc1cccnc1NCc1cccnc1 was -115.5%.

With N#Cc1cccc(OCCn2cnc(C#N)n2)c1 the screen gave 55.93%. Result for CC(C)CC(O)CNC(=O)c1ccccc1O (stereo not drawn) was -1.14%. For CSCC[C@H](NC(=O)C1CC1)c1nc2ccccc2[nH]1 the result was 6.215%. O=C1CNc2ccncc2N1 gave 9.91%.

With O=C(CSCC(F)(F)F)N1CCOc2ccncc21 the screen gave 11.77%. NCCOc1ccc2c(c1)OCO2 read 17.75%. For CCN(CC(=O)NC)S(=O)(=O)c1ccc(C(N)=O)cc1 the result was 1.046%. Cc1ccc(NC(=O)C2CCCN2)nc1 (stereo not drawn) gave 26.02%.

O=C(CCN1CCCC1)N1CCc2ccccc21 gave 73.22%.

Once more, the final 3:

compound	Percent Effect
CCN(CC(=O)NC)S(=O)(=O)c1ccc(C(N)=O)cc1	1.046%
Cc1ccc(NC(=O)C2CCCN2)nc1 (stereo not drawn)	26.02%
O=C(CCN1CCCC1)N1CCc2ccccc21	73.22%